Pooled drug test results. Numbers come from NIAID ChemDB, via PubChem.

All rows: tests in culture; agent: Parainfluenza virus; method: cytopathic effect; read-out: EC50

ECn is the concentration giving n% inhibition of infection, replication or growth.

Nc1ccn(C(CF)CCCO)c(=O)n1 ; cells: VERO ; strain or isolate: TYPE 3 ; value: >400 µg/mL
Nc1ncnc2c1ncn2[C@H]1C[C@H](O)[C@@H](/C=N/O)O1 ; cells: VERO ; strain or isolate: TYPE 3 ; value: >100 µg/mL
Nc1ccn([C@H]2C[C@@H](O)[C@H](CO)O2)c(=O)n1 ; cells: VERO B ; strain or isolate: TYPE 3 ; value: >10 µM
CC1(C)[C@@H](CCO)C[C@H]1n1cnc2c(N)nc(N)nc21 ; cells: VERO ; strain or isolate: TYPE 3 ; value: >400 µg/mL
Cc1nc(Cc2ccccc2)c2[nH]c(=S)[nH]c(=O)n12 ; cells: VERO ; strain or isolate: TYPE 3 ; value: >100 µg/mL
Nc1ncnc2c1ncn2[C@@H]1C[C@H](COP(=O)(O)O)[C@@H](O)[C@H]1O ; cells: VERO ; strain or isolate: TYPE 1 ; value: >200 µg/mL
[N-]=[N+]=N[C@H]1[C@@H](F)[C@H](N2C=CC(N)NC2=O)O[C@@H]1CO ; cells: VERO B ; strain or isolate: TYPE 3 ; value: >400 µg/mL
NC(=O)CSc1ncnc2c1cnn2COCC(O)CO ; cells: VERO ; strain or isolate: TYPE 3 ; value: >400 µg/mL
Nc1ncnc2c1ncn2[C@@H]1O[C@H](/C=N/O)[C@@H](O)[C@@H]1O ; cells: VERO ; strain or isolate: TYPE 3 ; value: >40 µg/mL
N#CC1=CSc2nnc(-c3cn(-c4ccccc4)nc3-c3ccccc3)n2N=C1N ; cells: VERO ; strain or isolate: TYPE 3 ; value: >16 µg/mL
COCC1=C[C@@H](n2cnc3c(N)ncnc32)[C@H](O)[C@@H]1O ; cells: VERO ; strain or isolate: TYPE 3 ; value: 70 µg/mL
Cc1cn([C@@H]2O[C@@H](CO)[C@H](O)[C@H]2O)c(=O)[nH]c1=O ; cells: VERO B ; strain or isolate: TYPE 3 ; value: >1000 µM
C=C(N=CC)c1nc(-c2ccccc2)n(C2O[C@H](CO)[C@@H](O)[C@H](O)[C@H]2O)n1 ; cells: VERO ; strain or isolate: TYPE 3 ; value: >200 µg/mL
Nc1ncnc2c1ncn2C[C@H](O)CO ; cells: VERO ; strain or isolate: TYPE 3 ; value: 70 µg/mL
CC=NC(=N)c1nc(-c2ccccc2)n(COCCO)n1 ; cells: VERO ; strain or isolate: TYPE 3 ; value: 70 µg/mL
CC1(C)[C@@H](CCO)C[C@H]1n1cnc2c(=O)[nH]cnc21 ; cells: VERO ; strain or isolate: TYPE 3 ; value: >400 µg/mL
Nc1ncnc2c1ncn2[C@H]1C[C@@H](CO)[C@H](O)[C@@H]1O ; cells: VERO ; strain or isolate: TYPE 1 ; value: ≥200 µg/mL
CCC(Sc1ncnc2c1cnn2COCC(O)CO)C(N)=O ; cells: VERO ; strain or isolate: TYPE 3 ; value: >400 µg/mL
CON=C1C[C@H](n2cc(C)c(=O)[nH]c2=O)O[C@@H]1CO ; cells: VERO ; value: >200 µg/mL
Nc1ncnc2c1ncn2[C@@H]1C=C(CO)[C@@H](O)[C@H]1O ; cells: VERO ; strain or isolate: TYPE 3 ; value: 0.4 µg/mL
Nc1ccn(CCCC(O)CF)c(=O)n1 ; cells: VERO ; strain or isolate: TYPE 3 ; value: >400 µg/mL
NC1=Nn2c(nnc2-c2cn(-c3ccccc3)nc2-c2ccccc2)SC1 ; cells: VERO ; strain or isolate: TYPE 3 ; value: >16 µg/mL
CC1=C[C@@H](n2cnc3c(N)ncnc32)[C@H](O)[C@@H]1O ; cells: VERO ; strain or isolate: TYPE 3 ; value: 20 µg/mL
CC=NC(=N)c1nc(-c2ccc(OC)cc2)n(C/C=C/c2ccccc2)n1 ; cells: VERO ; strain or isolate: TYPE 3 ; value: >100 µg/mL
Nc1ncnc2c1ncn2[C@@H]1O[C@H](C=NOCc2ccccc2)[C@@H](O)[C@H]1O ; cells: VERO ; strain or isolate: TYPE 3 ; value: >100 µg/mL
CC1(C)[C@@H](CCO)C[C@H]1n1cnc2c(=O)[nH]c(N)nc21 ; cells: VERO ; strain or isolate: TYPE 3 ; value: >400 µg/mL
CC=NC(=N)c1nc(-c2ccc(C)cc2)n(Cc2ccccc2)n1 ; cells: VERO ; strain or isolate: TYPE 3 ; value: >10 µg/mL
CC1=Nn2c(nnc2-c2cn(-c3ccccc3)nc2-c2ccccc2)SC1 ; cells: VERO ; strain or isolate: TYPE 3 ; value: >16 µg/mL
O=c1ccn([C@H]2C[C@@H](O)[C@H](CO)O2)c(=O)[nH]1 ; cells: VERO B ; strain or isolate: TYPE 3 ; value: >100 µM
CC=NC(=N)c1nc(-c2ccc(C)cc2)n(COCCO)n1 ; cells: VERO ; strain or isolate: TYPE 3 ; value: 70 µg/mL
Nc1nc2c(ncn2CCCC(O)CF)c(=O)[nH]1 ; cells: VERO ; strain or isolate: TYPE 3 ; value: >400 µg/mL
C=C(N=CC)c1nc(-c2ccc(C)cc2)n([C@@H]2O[C@H](CO)[C@@H](O)[C@H]2O)n1 ; cells: VERO ; strain or isolate: TYPE 3 ; value: >40 µg/mL
CC(=O)Nc1nc2c(CC(O)CO)nc(C)n2c(=O)[nH]1 ; cells: VERO ; strain or isolate: TYPE 3 ; value: >200 µg/mL
CCOC(=O)C1=CSc2nnc(-c3cn(-c4ccccc4)nc3-c3ccccc3)n2N=C1N ; cells: VERO ; strain or isolate: TYPE 3 ; value: >16 µg/mL
CC=NC(=N)c1nc(-c2ccc(OC)cc2)n(Cc2ccccc2)n1 ; cells: VERO ; strain or isolate: TYPE 3 ; value: >10 µg/mL
C=CCc1nc(C)n2c(=O)[nH]c(NC(C)=O)nc12 ; cells: VERO ; strain or isolate: TYPE 3 ; value: >200 µg/mL
NC(=O)CSc1ncnc2c1cnn2COCCO ; cells: VERO ; strain or isolate: TYPE 3 ; value: >400 µg/mL
CCON=C[C@H]1O[C@@H](n2cnc3c(N)ncnc32)[C@H](O)[C@@H]1O ; cells: VERO ; strain or isolate: TYPE 3 ; value: >100 µg/mL
[N-]=[N+]=N[C@H]1[C@@H](F)[C@H](n2cnc3c(N)ncnc32)O[C@@H]1CO ; cells: VERO B ; strain or isolate: TYPE 3 ; value: >200 µg/mL
CC=NC(=N)c1nc(-c2ccccc2)n(C/C=C/c2ccccc2)n1 ; cells: VERO ; strain or isolate: TYPE 3 ; value: >10 µg/mL

Lines come from different laboratories, so protocols vary.